Values from PubChem BioAssay AID504761 (Drosophila RNAi Screening Center, 2011)

Test: 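Insect host genes that dengue virus relies on to spread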 (primary screen)
Cells: D.Mel-2 cells from Drosophila
Reagents: long dsRNA against Drosophila genes
Challenge: infection with dengue virus type 2; dose and infection time not stated
Measurement: 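Cells stained for dengue envelope protein and imaged; percent of infected cells per well on duplicate plates, ranked by infection, with stained nuclei counted for cell number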
Scale: infection score: higher = more virus-infected cells; cell count: higher = more cells in the well
Call rule: 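Very low infection ranking in both replicate wells (chance probability at most 0.065), then a retest showing infection dropped 1.5-fold or more at p below 0.05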
Meaning of the calls: active = confirmed: knock-down lowers infection; inactive = not picked or not confirmed
The deposit covers about 22,000 reagents; shown is an unselected part of those that have a named target and a result. In the full data, 116 (0.52%) were called active. 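Calls depend on retest data that are not deposited; infection was ranked per plate without normalising between plates; the unit of the infection score is not given.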 Raw values are not corrected between plates. Entries without a mark were called inactive. Names joined by + are all predicted targets of the reagent. Not stated in the record: the amount of reagent, the time to read-out.

gene | dsRNA | infection score, replicate 1 | infection score, replicate 2 | cell count, replicate 1 | cell count, replicate 2
PPP4R2r (Protein phosphatase 4 regulatory subunit 2-related protein) | DRSC18695 | 12.5 | 18.1 | 4944 | 3857
PPP4R2r (Protein phosphatase 4 regulatory subunit 2-related protein) | DRSC21503 | 1.31 | 3.21 | 5899 | 6389
PPP4R2r (Protein phosphatase 4 regulatory subunit 2-related protein) | DRSC27825 | 5.83 | 32.1 | 5339 | 2961
Srg2 + CG42826 | DRSC10681 | 10.9 | 6.88 | 6451 | 6844
Srg2 + CG42826 | DRSC10682 | 5.06 | 11.8 | 5972 | 4627
Srg2 + CG42826 | DRSC24667 | 9.28 | 9.82 | 6325 | 5949
CG11980 | DRSC14456 | 19.9 | 11.7 | 5248 | 4974
CG8950 | DRSC07300 | 6.54 | 16.3 | 6381 | 5900
CG15145 | DRSC02446 | 4.29 | 1.54 | 6172 | 6547
CG15145 | DRSC26674 | 1.87 | 3.22 | 5950 | 6310
CG32462 | DRSC11851 | 3.16 | 11.3 | 6450 | 6741
CG32462 | DRSC29458 | 21 | 20.8 | 5605 | 4367
se (sepia) | DRSC10713 | 1.75 | 1.79 | 6052 | 6664
CG11723 | DRSC00324 | 12.7 | 8.34 | 5488 | 5286
CG11723 | DRSC24890 | 2.47 | 4.93 | 6081 | 6042
CG12877 | DRSC14565 | 4.76 | – | 3065 | 361
CG32111 (retired record) | DRSC09203 | 3.57 | 2.46 | 6054 | 5896
CG4287 | DRSC15559 | 20.5 | 8.45 | 5571 | 6062
CG4287 | DRSC26372 | 9.62 | 3.56 | 5499 | 5985
Rpn2 (Regulatory particle non-ATPase 2) | DRSC16839 | 4.51 | 2.63 | 2107 | 2360
Mat1 (Menage a trois 1) | DRSC07465 | 3.84 | 3.06 | 6597 | 6741
Mat1 (Menage a trois 1) | DRSC25955 | 6.37 | 3.74 | 6330 | 6473
eco (Establishment of cohesion) | DRSC11006 | 6.21 | 3.5 | 5235 | 5655
CG10051 | DRSC05959 | 1.67 | 1.11 | 6478 | 6287
BBS1 (Bardet-Biedl syndrome 1) | DRSC10196 | 21.6 | 3.19 | 6277 | 6656
Obp50a (Odorant-binding protein 50a) | DRSC22152 | 8.81 | 17.2 | 6390 | 6448
Obp50a (Odorant-binding protein 50a) | DRSC28404 | 12.6 | 3.62 | 4483 | 607
COX7B (Cytochrome c oxidase subunit 7B) | DRSC10895 | 1.86 | 6.88 | 6506 | 5796
Prosbeta2R2 (Proteasome beta2 subunit-related 2) | DRSC12193 | 6.05 | 1.2 | 6696 | 6674
CG10598 | DRSC19358 | 10.1 | 2.13 | 6499 | 6699
CG10598 | DRSC25200 | 1.65 | 4.13 | 6228 | 6007
lic (licorne) | DRSC20347 | 1.52 | 0.91 | 6693 | 6713
Amph (Amphiphysin) | DRSC07578 | 9.86 | 9.87 | 6117 | 6242

Continued (6 carried over from the part before).
gene | dsRNA | infection score, replicate 1 | infection score, replicate 2 | cell count, replicate 1 | cell count, replicate 2
COX7B (Cytochrome c oxidase subunit 7B) | DRSC10895 | 1.86 | 6.88 | 6506 | 5796
Prosbeta2R2 (Proteasome beta2 subunit-related 2) | DRSC12193 | 6.05 | 1.2 | 6696 | 6674
CG10598 | DRSC19358 | 10.1 | 2.13 | 6499 | 6699
CG10598 | DRSC25200 | 1.65 | 4.13 | 6228 | 6007
lic (licorne) | DRSC20347 | 1.52 | 0.91 | 6693 | 6713
Amph (Amphiphysin) | DRSC07578 | 9.86 | 9.87 | 6117 | 6242
RabX1 | DRSC04678 | 14.4 | 16.8 | 6286 | 6143
Tsp42Ed (Tetraspanin 42Ed) | DRSC05940 | 20 | 11.7 | 5294 | 5703
MED28 (Mediator complex subunit 28) | DRSC15721 | 11.2 | 20.5 | 4818 | 4953
Mulk (Multi-substrate lipid kinase) | DRSC02658 | 9.58 | 20.3 | 5667 | 5797
Hayan | DRSC19989 | 1.56 | 3.91 | 7066 | 6727
Hayan | DRSC22231 | 4.01 | 0.75 | 7128 | 7484
Hayan | DRSC26434 | 0.9 | 1.87 | 6095 | 6374
CG17108 | DRSC02576 | 5.53 | 2.19 | 6350 | 6569
CG17108 | DRSC22214 | 6.69 | 1.78 | 6521 | 6340
CG17108 | DRSC25301 | 3.51 | 4.41 | 5957 | 6104
HDAC6 (Histone deacetylase 6) | DRSC20252 | 2.95 | 1.36 | 6163 | 6344
HDAC6 (Histone deacetylase 6) | DRSC29348 | 14.9 | 1.23 | 5659 | 487
CG3078 | DRSC18531 | 5.23 | 7.44 | 6921 | 6738
CG3078 | DRSC23471 | 6.96 | 2.7 | 6451 | 6525
byn (brachyenteron) | DRSC11332 | 2.95 | 2.54 | 6208 | 6422
byn (brachyenteron) | DRSC29142 | 11.2 | 11.8 | 3162 | 3361
nerfin-2 (nervous fingers 2) | DRSC14547 | 3.18 | 10.6 | 6550 | 6145
nerfin-2 (nervous fingers 2) | DRSC28542 | 13.9 | 10.1 | 3927 | 4084
phtf | DRSC05023 | 16.9 | 16.1 | 5750 | 5758
phtf | DRSC28441 | 10.3 | 23.9 | 3577 | 5946
CG18586 | DRSC10325 | 0.3 | 1.82 | 5947 | 5608
CG10041 | DRSC14179 | 3.41 | 3.89 | 6919 | 591
CG10041 | DRSC29505 | – | 6.61 | 328 | 1347
BEAF-32 (Boundary element-associated factor of 32kD) | DRSC05927 | 10.8 | 13 | 6280 | 6263
CG1924 | DRSC19823 | 2.21 | 2.81 | 6701 | 7043
CG1924 | DRSC24870 | 4.14 | 6.39 | 6674 | 6405
